PubChem BioAssay AID1259414 – Drosophila RNAi Screening Center | 2018
The deposit covers about 24,000 reagents; below is a random part of those that have a named target and a result. In the full data, about 1,210 (5%) were called active. 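Inactive calls also include excluded dsRNAs with several or no targets, genes unexpressed in JW18, and well A1, regardless of score.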 Entries without a mark were called inactive. Reagents against one gene are numbered here.

Aim: 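Host factors increasing or decreasing Wolbachia levels in cultured fly cells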 (primary screen)
System: Drosophila JW18 cells infected with Wolbachia
Reagent: long dsRNA against Drosophila genes, 0.25 µg dsRNA per well of a 384-well plate
Timing: 5 days
Conditions: cells persistently infected with Wolbachia before knock-down; no added drug
Measurement: 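Automated imaging of bacterial rRNA staining divided by host cell count, reported as plate-normalised robust z-score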
Reading the numbers: Wolbachia per cell robust z: higher = more Wolbachia per host cell than the plate typical
Rule for the call: 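Active if absolute robust z reaches 1.5 in two or more of three replicates, leaving out multi- or no-target dsRNAs, genes unexpressed in JW18 and A1 wells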

Edg78E #1 | Wolbachia per cell robust z, rep 1: -0.0106; Wolbachia per cell robust z, rep 2: 0.56; Wolbachia per cell robust z, rep 3: 0.72
Edg78E #2 | Wolbachia per cell robust z, rep 1: -0.0022; Wolbachia per cell robust z, rep 2: -0.125; Wolbachia per cell robust z, rep 3: -0.0498
CG18789 | Wolbachia per cell robust z, rep 1: -5.91; Wolbachia per cell robust z, rep 2: -5.14; Wolbachia per cell robust z, rep 3: -0.474
dare | Wolbachia per cell robust z, rep 1: 0.212; Wolbachia per cell robust z, rep 2: -1.93; Wolbachia per cell robust z, rep 3: 0.207
CG31337 | Wolbachia per cell robust z, rep 1: -1.25; Wolbachia per cell robust z, rep 2: -0.547; Wolbachia per cell robust z, rep 3: -0.618
Gprk2 #1 | Wolbachia per cell robust z, rep 1: -0.344; Wolbachia per cell robust z, rep 2: -0.245; Wolbachia per cell robust z, rep 3: -4.7
Gprk2 #2 | Wolbachia per cell robust z, rep 1: 0.335; Wolbachia per cell robust z, rep 2: -2.58; Wolbachia per cell robust z, rep 3: 0.616
glob2 | Wolbachia per cell robust z, rep 1: -0.495; Wolbachia per cell robust z, rep 2: -0.704; Wolbachia per cell robust z, rep 3: -0.437
Git #1 | Wolbachia per cell robust z, rep 1: 0.256; Wolbachia per cell robust z, rep 2: 0.952; Wolbachia per cell robust z, rep 3: 0.675
Git #2 | Wolbachia per cell robust z, rep 1: -0.541; Wolbachia per cell robust z, rep 2: 1.06; Wolbachia per cell robust z, rep 3: 0.211
RhoL #1 | Wolbachia per cell robust z, rep 1: 2.71; Wolbachia per cell robust z, rep 2: -0.0629; Wolbachia per cell robust z, rep 3: 1.98
RhoL #2 | Wolbachia per cell robust z, rep 1: -0.219; Wolbachia per cell robust z, rep 2: -1.73; Wolbachia per cell robust z, rep 3: -2.11
RhoL #3 | Wolbachia per cell robust z, rep 1: 0.00277; Wolbachia per cell robust z, rep 2: -1.81; Wolbachia per cell robust z, rep 3: -1.1
Rubicon #1 | Wolbachia per cell robust z, rep 1: 0.113; Wolbachia per cell robust z, rep 2: -0.0706; Wolbachia per cell robust z, rep 3: 0.141
Rubicon #2 | Wolbachia per cell robust z, rep 1: -1.84; Wolbachia per cell robust z, rep 2: 1.02; Wolbachia per cell robust z, rep 3: 0.136
mxc | Wolbachia per cell robust z, rep 1: 0.448; Wolbachia per cell robust z, rep 2: -0.356; Wolbachia per cell robust z, rep 3: 0.712
